Publication doi:10.1101/2024.12.23.630153v1 (biorxiv, 2024)
Where “and” joins values, the source holds several entries; their conditions need not be identical. Identical values can stand only once. Like-named read-outs stand apart in the source and are kept apart here.

How the values were obtained:
OXA-57 [1] = biological target: T1, OXA-57 (Burkholderia pseudomallei, UniProt Q6ZZZ2); test: biochemical; conditions: pIC50
OXA-57 [2] = biological target: T1, OXA-57; test: biochemical
[3] = test system: C[C@@H](O)[C@H]1C(=O)N2C(C(=O)O)=C(SCCN=CN)C[C@H]12; test: purified protein
[4] = test system: CC1(C)S[C@@H]2[C@H](NC(=O)[C@H](N)c3ccccc3)C(=O)N2[C@H]1C(=O)O; test: purified protein
[5] = test system: C[C@@H](O)[C@H]1C(=O)N2C(C(=O)O)=C(S[C@@H]3CN[C@H](C(=O)N(C)C)C3)[C@H](C)[C@H]12; test: purified protein
[6] = test system: CC(=O)OCC1=C(C(=O)O)N2C(=O)[C@@H](NC(=O)Cc3cccs3)[C@H]2SC1; test: purified protein

| Molecule | IC50 (OXA-57 [1]) | IC50 (OXA-57 [2]) [µM] | Km [3] [µM] | Km [4] [µM] | Km [5] [µM] | Km [6] [µM] |
| --- | --- | --- | --- | --- | --- | --- |
| NC(=O)[C@@H]1CC[C@@H]2CN1C(=O)N2OS(=O)(=O)O [Avibactam] | 20 µM and 63.1 µM | 13.2 |  |  |  |  |
| OXA-57 (Burkholderia pseudomallei) |  |  | 51 ± 12 | 131 ± 32 | 21 ± 7 | 238 ± 44 |
